PubChem BioAssay AID624099, ICCB-Longwood, 2012

Aim: 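Host factors E2 relies on to silence an HPV18 LCR reporter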 (primary screen)
Cell system: human C33A cervical carcinoma cells (HPV-negative) stably expressing BPV1 E2 and an HPV18 LCR luciferase reporter
Reagents: siRNA pool against human genes, 40 nM
Duration: 72 h
Detection: 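HPV18 LCR reporter light per well, converted to plate-wise z-scores that exclude control wells, and averaged over triplicate plates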
Reading the numbers: mean z-score and z-score: higher = stronger reporter signal, weaker E2 silencing
Active means: 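Mean z ≥ 2 together with z ≥ 2 in two or more of the three replicates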
In all, the deposit lists about 21,000 reagents; below is a random part of them. In the full data, 497 (2.4%) got an active call. 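Higher z means weaker E2 silencing; only reporter increases were scored, and knock-downs that hurt cell survival may mask genuine repressor factors.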

Target gene | mean z-score | z-score, replicate A | z-score, replicate B | z-score, replicate C | outcome
BMP4 | -0.36 | -0.51 | -0.21 | -0.37 | inactive
KRTAP4-1 | -1.03 | -1.45 | -0.83 | -0.81 | inactive
IL12RB1 | 2.86 | 2.87 | 3.07 | 2.64 | active
LOC392487 (retired record) | 0.36 | 0.2 | 0.44 | 0.44 | inactive
KIRREL1 | -0.08 | -0.42 | -0.34 | 0.53 | inactive
SLC28A3 | -0.71 | -0.95 | -1.16 | -0.02 | inactive
CDHR2 | 0.6 | 0.85 | 0.84 | 0.1 | inactive
KCNH4 | -0.28 | -0.04 | -0.49 | -0.3 | inactive
SLC30A5 | 1.67 | 2.53 | 1.38 | 1.11 | inactive
NAT10 | -0.36 | 0 | 0.03 | -1.12 | inactive
MRPL58 | -0.91 | -0.73 | -1.22 | -0.77 | inactive
STON1 | 2.3 | 2.79 | 2.15 | 1.94 | active
LOC390865 (retired record) | 0.13 | 0.35 | 0.16 | -0.12 | inactive
SSTR2 | 1.51 | 1.77 | 1.29 | 1.48 | inactive
GON7 | -1.04 | -0.88 | -1.14 | -1.09 | inactive
BPIFA4P | -1.07 | -1.05 | -1.19 | -0.95 | inactive
NMNAT1 | -0.77 | -0.68 | -0.92 | -0.71 | inactive
RIPOR1 | 2.8 | 3.03 | 2.49 | 2.87 | active
TGFBR2 | 0.24 | 0.44 | 0.25 | 0.04 | inactive
PRG2 | 0.56 | 0.47 | 0.73 | 0.49 | inactive
COX20 | 0.73 | 0.64 | 0.84 | 0.7 | inactive
WDR27 | 0.14 | 0.23 | 0.03 | 0.16 | inactive
PCDH19 | 0.28 | 0 | 0.42 | 0.42 | inactive
EFNB3 | 0.09 | 0.48 | -0.21 | -0.01 | inactive
CCNQ | -0.44 | -0.22 | -0.74 | -0.36 | inactive
LOC387992 (retired record) | 1.32 | 1.38 | 1.25 | 1.33 | inactive
PUS1 | -0.44 | -0.74 | 0 | -0.59 | inactive
FAM234A | -1.39 | -1.49 | -1.36 | -1.33 | inactive
PCLO | 0.4 | -0.45 | 2.3 | -0.66 | inactive
KCNJ10 | -1.26 | -1.35 | -1.44 | -0.99 | inactive
PGP | -0.03 | -0.1 | 0.32 | -0.32 | inactive
PPARD | 0.02 | 0.28 | -0.16 | -0.04 | inactive
RBM22 | 3.14 | 2.53 | 3.54 | 3.35 | active
EDIL3 | 0.44 | 0.38 | 0.6 | 0.33 | inactive
FLJ90680 (retired record) | 0.17 | 0.28 | 0.32 | -0.1 | inactive
PPHLN1 | 0.04 | 0.17 | -0.54 | 0.5 | inactive
PHOX2B | 0.26 | 0.19 | 0.21 | 0.39 | inactive
ANPEP | 0.28 | -0.01 | 0.38 | 0.48 | inactive
C3orf70 | 1.02 | 1.08 | 0.82 | 1.15 | inactive

In a second layout: entries from further up
{"Target gene": "KRTAP4-1", "mean z-score": -1.03, "z-score, replicate A": -1.45, "z-score, replicate B": -0.83, "z-score, replicate C": -0.81, "outcome": "inactive"}
{"Target gene": "IL12RB1", "mean z-score": 2.86, "z-score, replicate A": 2.87, "z-score, replicate B": 3.07, "z-score, replicate C": 2.64, "outcome": "active"}
